Compound potency records, mixed from different reports. Data source: NIAID ChemDB in PubChem.

Common to all: cytotoxicity tests; cell line: MT-4; endpoint: CC50

CCn: concentration that lowers growth or viability of the cells by n%.

| structure | method | value |
|---|---|---|
| CC(C)=CCc1c(O)ccc([C@@H]2COc3c(ccc4c3C=CC(C)(C)O4)C2)c1O | - | >100 µg/mL |
| CC(C)C(N)C(=O)O[C@@H](C[C@@H](Cc1ccccc1)C(=O)N[C@H]1c2ccccc2C[C@H]1O)CN1CCN(Cc2cccnc2)C[C@H]1C(=O)NC(C)(C)C | - | >0.1 µM |
| COC(=O)[C@H](Cc1ccc(O)cc1)NP(=O)(OC[C@H]1C=C[C@@H](n2cnc3c(N)ncnc32)C1)Oc1ccccc1 | MTS | >32 µM |
| Nc1ncnc2c1ncn2CCOCP(=O)(O)O | - | 21 µg/mL |
| C[C@H](NP(=O)(OC[C@H]1C=C[C@@H](n2cnc3c(N)ncnc32)C1)Oc1ccccc1)C(=O)OCC(C)(C)C | trypan blue | 20.2 µM |
| CCCCCCCCCC(=O)O[C@@]12[C@H](OCOC)[C@@H](C)[C@@]3(O)[C@@H](C=C(CO)C[C@]4(O)C(=O)C(C)=C[C@@H]34)[C@@H]1C2(C)C | MTT | 8.3 µg/mL |
| CC(C)=CCN1Cc2cc(Cl)cc3[nH]c(=S)n(c23)C[C@@H]1C | - | 20 µg/mL |
| CC(=O)OCCOCn1cc(C=O)c2ccccc21 | - | >200 µM |
| O=S(=O)(O)OCC1OC2OC3C(COS(=O)(=O)O)OC(OC4C(COS(=O)(=O)O)OC(OC5C(COS(=O)(=O)O)OC(OC6C(COS(=O)(=O)O)OC(OC7C(COS(=O)(=O)O)OC(OC8C(COS(=O)(=O)O)OC(OC1C(OS(=O)(=O)O)C2OS(=O)(=O)O)C(OS(=O)(=O)O)C8OS(=O)(=O)O)C(OS(=O)(=O)O)C7OS(=O)(=O)O)C(OS(=O)(=O)O)C6OS(=O)(=O)O)C(OS(=O)(=O)O)C5OS(=O)(=O)O)C(OS(=O)(=O)O)C4OS(=O)(=O)O)C(OS(=O)(=O)O)C3OS(=O)(=O)O | - | >250 µg/mL |
| COCCOCCOCCOCCOCCOCCOCCOC(=O)CCC(=O)O[C@H](CN1C[C@H]2CCCC[C@H]2C[C@H]1C(=O)NC(C)(C)C)[C@H](Cc1ccccc1)NC(=O)[C@H](CC(N)=O)NC(=O)c1ccc2ccccc2n1 | - | >0.01 µM |
| Fc1cccc(F)c1C1SCc2nc3ccccc3n21 | - | 48.6 µM |
| CCc1cc(NCc2nc3c(Cl)ccc(Cl)c3o2)c(=O)[nH]c1C | - | >60 µM |
| Cc1cn([C@H]2C[C@H](N=[N+]=[N-])[C@@H](COP(=O)(Oc3ccccc3)C(O)c3ccc([N+](=O)[O-])cc3)O2)c(=O)[nH]c1=O | MTT | 37 µM |
| Nc1nc2c(ncn2C/C=N/OCP(=O)(O)O)c(=O)[nH]1 | absorbance | >1000 µM |
| Cc1cn([C@H]2C=C[C@@H](CO)O2)c(=O)[nH]c1=O | MTT | 299 µM |
| CCCCCCCCCC(=O)O[C@@]12[C@H](OC(C)=O)[C@@H](C)[C@@]3(O)[C@@H](C=C(CO)C[C@]4(O)C(=O)C(C)=C[C@@H]34)[C@@H]1C2(C)C | MTT | 3.3 µg/mL |
| CC(=O)OCCOCn1cc(C(C)=O)c2ccccc21 | - | >200 µM |
| COc1cc(O)c(-c2coc3cc(O)ccc3c2=O)c(OC)c1CC=C(C)C | - | 64 µg/mL |
| OC[C@H]1O[C@@H](Sc2nc3cc(Cl)c(Cl)cc3[nH]2)C(O)C1O | - | >100 µM |
| COC(=O)[C@@H](Cc1ccccc1)NP(=O)(OC[C@H]1C=C[C@@H](n2cnc3c(N)ncnc32)C1)Oc1ccccc1 | trypan blue | 71 µM |
| Cc1cn([C@H]2C[C@H](N=[N+]=[N-])[C@@H](CO)O2)c(=O)[nH]c1=O | - | 150 µM |
| Cc1ncc([N+](=O)[O-])n1CCOC(c1ccccc1)c1ccco1 | MTT | 84 µM |
| CN(C)c1cccc2c(S(=O)(=O)N3CCSC3c3ccccn3)cccc12 | - | >1000 µM |
| Cc1cccc(C)c1OP(=O)(OC[C@H]1O[C@@H](n2cc(C)c(=O)[nH]c2=O)C[C@@H]1N=[N+]=[N-])C(O)c1cccnc1 | MTT | 49 µM |
| C[C@H](NC(=O)[C@H](CCCN=C(N)N)NC(=O)c1ccc(CNCc2ccccn2)cc1)c1cccc2ccccc12 | MTT | 406 µM |
| O=C1CSC(c2c(F)cccc2Cl)N1c1cccc(C(F)(F)F)c1 | - | 31.88 µM |
| CNC(C)[C@H]1O[C@H](O[C@@H]2[C@@H](O)[C@H](O[C@@H]3OC[C@@](C)(O)[C@@H](NC)[C@@H]3O)[C@@H](NC(=O)[C@@H](N)CCCN=C(N)N)C[C@H]2NC(=O)[C@@H](N)CCCN=C(N)N)[C@H](NC(=O)[C@@H](N)CCCN=C(N)N)[C@@H](O)[C@@H]1O | - | >1000 µM |
| Nc1ncnc2c1ncn2[C@H]1C[C@@H](OCP(=O)(O)O)CO1 | MTT | ≥315 µM |
| CC(=O)OCCOCn1c(-c2ccccc2)c(Br)c2ccccc21 | - | 120 µM |
| Cc1cn([C@H]2C[C@H](N=[N+]=[N-])[C@@H](COP(=O)(OCCSC(=O)C(C)(C)C)Oc3ccc(C[C@@H](CO)NC(=O)OC(C)(C)C)cc3)O2)c(=O)[nH]c1=O | - | >10 µM |
| COC(=O)[C@H](Cc1ccc(OC(C)(C)C)cc1)NP(=O)(OC[C@H]1C=C[C@@H](n2cnc3c(N)ncnc32)C1)Oc1ccccc1 | MTS | <40 µM |
| Cc1cn([C@H]2C=C[C@@H](COP(=O)(O)O)O2)c(=O)[nH]c1=O | - | 42 µM |
| Cc1csc(NC(=S)NCCc2c(F)cccc2F)n1 | - | 128 µM |
| CC(=O)c1ccc(C)cc1NC(C(N)=O)c1c(Cl)cccc1Cl | - | >125 µg/mL |
| Cc1ccc(C(O)P(=O)(OC[C@H]2O[C@@H](n3cc(C)c(=O)[nH]c3=O)C[C@@H]2N=[N+]=[N-])Oc2ccccc2)cc1 | MTT | 42 µM |
| CCc1cc(NCc2cc3c(Cl)ccc(Cl)c3o2)c(=O)[nH]c1C | - | >60 µM |
| Cc1cn([C@H]2C[C@H](N=[N+]=[N-])[C@@H](COC(=O)NCCSC(=O)OC[C@H]3O[C@@H](n4cc(C)c(=O)[nH]c4=O)C[C@@H]3N=[N+]=[N-])O2)c(=O)[nH]c1=O | MTT | >100 µM |
| Cc1ccnc2c1NC(=O)c1cccnc1N2C1CC1 | - | 156 µM |
| CC(C)=CCc1c(O)cc(O)c2c(=O)c(OC3O[C@@H](C)[C@H](O)[C@@H](O)[C@H]3O[C@@H]3O[C@H](CO)[C@@H](O)[C@H](O)[C@H]3O)c(-c3ccc(O)cc3)oc12 | - | >500 µg/mL |
| Fc1cccc(Cl)c1C1OCc2nc3ccccc3n21 | - | 71 µM |
| CC(=O)c1ccc(C)cc1NC(C(N)=O)c1c(Cl)cccc1Cl | - | 137 µM |
| Cc1cn([C@@H]2C[C@@H](N=[N+]=[N-])[C@H](COC(=O)OC[C@H]3O[C@@H](n4cc(C)c(=O)[nH]c4=O)C[C@@H]3N=[N+]=[N-])O2)c(=O)[nH]c1=O | MTT | 119.2 µM |
| Cc1ccnc2c1NC(=O)c1cccnc1N2C1CC1 | - | 50 µM |
| CCCCCCCCCC(=O)O[C@@]12[C@H](OCOCc3ccccc3)[C@@H](C)[C@@]3(O)[C@@H](C=C(CO)C[C@]4(O)C(=O)C(C)=C[C@@H]34)[C@@H]1C2(C)C | MTT | 4.4 µg/mL |
| Cc1cn([C@H]2C[C@H](N=[N+]=[N-])[C@@H](COP(=O)(OCc3ccc([N+](=O)[O-])cc3)Oc3ccccc3)O2)c(=O)[nH]c1=O | MTT | 27 µM |
| OCCOCn1c(-c2ccccn2)c(Br)c2ccccc21 | - | >200 µM |
| S=C(NCCc1ccccn1)Nc1ccc(Cl)cn1 | - | 68 µM |
| Cc1cn([C@H]2C=C[C@@H](COC(=O)NCCSC(=O)OC[C@@H]3C=C[C@H](n4cc(C)c(=O)[nH]c4=O)O3)O2)c(=O)[nH]c1=O | MTT | >100 µM |
| O=C1CSC(c2c(Cl)cccc2Cl)N1c1cccc(C(F)(F)F)c1 | - | 8.62 µM |
| COC(=O)[C@@H](Cc1ccc(O)c(O)c1)OC(=O)/C=C/c1ccc(O)c(O)c1/C=C/c1ccc(O)c(O)c1 | MTT | 6.96 µg/mL |
| CCOP(=O)(OCC)OC[C@@H]1C=C[C@H](n2cc(C)c(=O)[nH]c2=O)O1 | - | 32 µM |
| O=C(/C=C/c1ccc(O)c2c1[C@H](C(=O)O)[C@H](c1ccc(O)c(O)c1)O2)O[C@H](Cc1ccc(O)c(O)c1)C(=O)O | MTT | 86.41 µg/mL |
| Oc1cc(O)cc(-c2cc3ccc(O)cc3o2)c1 | - | 54 µg/mL |
| C=COC(=O)OC[C@@H]1C=C[C@H](n2cc(C)c(=O)[nH]c2=O)O1 | MTT | 217.6 µM |
| Nc1ncnc2c1ncn2C/C=N/OCP(=O)(O)O | absorbance | >1000 µM |
| Cc1cn([C@@H]2C=C[C@H](COC(=O)NCCCCNC(=O)OC[C@H]3O[C@@H](n4cc(C)c(=O)[nH]c4=O)C[C@@H]3N=[N+]=[N-])O2)c(=O)[nH]c1=O | MTT | 186 µM |
| CC(C)C(N)C(=O)O[C@@H]1Cc2ccccc2[C@@H]1NC(=O)[C@H](Cc1ccccc1)C[C@H](O)CN1CCN(Cc2cccnc2)C[C@H]1C(=O)NC(C)(C)C | - | >0.1 µM |
| COc1ccc(OC)c(CCNC(=S)Nc2nccs2)c1 | - | 309 µM |
| COc1cc2c(c(O)c1CC=C(C)C)C(=O)C(c1ccc(O)cc1O)CO2 | - | 9 µg/mL |
| Cc1cn([C@H]2C[C@H](N=[N+]=[N-])[C@@H](COP(=O)(OCc3ccccc3)OCc3ccccc3)O2)c(=O)[nH]c1=O | - | 10 µM |
| O=[N+]([O-])c1c(-c2ccccc2)n(COCCO)c2ccccc12 | - | 154 µM |
| O=C(OC[C@H]1O[C@@H](n2c(=S)[nH]c3cc(Cl)c(Cl)cc32)C(OC(=O)c2ccccc2)C1OC(=O)c1ccccc1)c1ccccc1 | - | >100 µM |
| COc1ccc(C(O)P(=O)(OC[C@H]2O[C@@H](n3cc(C)c(=O)[nH]c3=O)C[C@@H]2N=[N+]=[N-])Oc2ccccc2)cc1 | MTT | 49 µM |
| CCCCCCCC/C=C\CCCCCCCC(=O)O[C@@H]1Cc2ccccc2[C@@H]1NC(=O)[C@H](Cc1ccccc1)C[C@H](O)CN1CCN(Cc2cccnc2)C[C@H]1C(=O)NC(C)(C)C | - | >0.01 µM |
| Nc1nccc2c1ncn2[C@@H]1C[C@H](CO)[C@@H](O)[C@H]1O | - | 7.1 µM |
| CCOC(=O)[C@@H](Cc1ccc(O)c(O)c1)OC(=O)/C=C/c1ccc(O)c(O)c1/C=C/c1ccc(O)c(O)c1 | MTT | 7.38 µg/mL |
| CN(C)c1cccc2c(S(=O)(=O)N3CCSC3c3cccnc3)cccc12 | - | 1830 µM |
| CCc1cc(NCc2nc3ccccc3o2)c(=O)[nH]c1C | - | >60 µM |
| Cc1cn([C@H]2C[C@H](N=[N+]=[N-])[C@@H](COP(=O)(O)OCc3ccccc3)O2)c(=O)[nH]c1=O | - | >100 µM |
| Cc1cn([C@@H]2C[C@@H](N=[N+]=[N-])[C@H](COC(=O)NCCCCNC(=O)OC[C@H]3O[C@@H](n4cc(C)c(=O)[nH]c4=O)C[C@@H]3N=[N+]=[N-])O2)c(=O)[nH]c1=O | MTT | 153.7 µM |
| Cc1cn([C@H]2C=C[C@@H](COC(=O)NCCSC(=O)OC[C@@H]3CC[C@H](n4cnc5c(=O)[nH]cnc54)O3)O2)c(=O)[nH]c1=O | MTT | >100 µM |
| Nc1ccn([C@@H]2O[C@H](CO)C[C@@H]2F)c(=O)n1 | - | 872 µM |
| O=S(=O)(c1cccc2ccccc12)N1CCSC1c1cccnc1 | - | >1000 µM |

Rows are shuffled and stem from different studies. An empty or dashed field is not shown.